Measurements from patent US7374875B2, “Peptides having affinity for the gp120 viral protein and use thereof” (priority 2001, dated 2008).

How the values were obtained:
[1] = test system: recombinant viral protein gp120; test: ELISA inhibition of CD4-gp120 interaction, gp120 strain not singled out
Procedure: (§1) The inhibition of the rgp120-CD4 interaction was measured by indirect ELISA (Enzyme Linked ImmunoSorbent Assay). 50 ng per well of anti-gp120 antibody, D7324, were immobilized on a 96-well plate (Maxisorb, Nunc) overnight at 4° C. After passivation with bovine serum albumin and three washes with the washing buffer (10 mM Tris, pH 7.8, 0.05% Tween 20), 15 ng of rgp120HXB2 per well were added. Various concentrations of competitors were then added, after three washes, and also 0.4 ng of soluble CD4 per well. 100% controls containing only soluble CD4 were prepared. After overnight incubation at 4° C. and three washes, 5 ng of mouse anti-CD4 antibody L120.3 were added per well, followed by a peroxidase-coupled goat anti-mouse IgG antibody (GAMPO). The revelation was carried out by adding 3,3′,5,5′-tetramethylbenzidine, a fluorescent substrate for peroxydase. The reaction was stopped after 30 minutes by adding 2M sulphuric acid. The inhibition of the rgp120-CD4 interaction was calculated by reading the absorbance A at 450 nm. Controls without competitor made it possible to determine the absorbance A100% (absorbance in the absence of competitor). The percentage inhibition for each concentration of peptide of the present invention was calculated using the formula: percentage inhibition=100×(A100%−A)/A100%.

[2] = target: gp120JRFL; test: Surface plasmon resonance, immobilized biotinylated peptide, gp120JRFL injected; conditions: biotinylated peptide on streptavidin chip, 25° C., read-out: dissociation constant KD
Procedure: (§2) The surface plasmon resonance experiments were carried out with a Biacore 2000 system (Biacore, Uppsala, Sweden). The peptides to be tested were coupled to biotin (as described previously) and then immobilized on a chip to which streptavidin had been previously attached.
(§3) The streptavidin was immobilized on the chip as follows: the surface of the chip was first activated by injection of 50 μL of coupling agent provided by the constructor and able to form amide bonds: N-ethyl-N′-(dimethylaminopropyl)carbodiimide (EDC)/N-hydroxy-succinimide (NHS), 50/50; then, 20 μL of streptavidin, 0.2 mg.mL^−1 in 10 mM sodium acetate, pH 4.5, were injected at 5 μL.min^−1, followed by neutralization of the activated carboxylic groups with 2×20 μL of 1.0 M ethanolamine, pH 8.5. […] The dissociation constants are calculated from the kinetic constants determined by the Bia-evaluation 3.0 software.
In order to obtain a first evaluation of the affinity of the peptide of the present invention CD4M33 for the viral protein gp120, an analysis of biospecific interactions (described in Example 3), based on detection by surface plasmon resonance, was used. […] Solutions, of various recombinant gp120 proteins (gp120HXB2, gp120BAL and gp120JRFL) were then injected onto this matrix and a signal indicating a specific and high affinity association was then detected.

[3] = target: recombinant viral protein gp120; test: Surface plasmon resonance, summary over recombinant gp120 proteins; conditions: read-out: Kd, surface plasmon resonance experiments
Procedure: as §2
as §3, with “8.5. The biotinylated molecules were then injected (10 μL.min^−1 in a 10 mM Hepes buffer containing 0.3 M NaCl, pH 7.4) onto three of the four lanes of the chip. On the first lane, CD4M9 (10^−7 M) was immobilized up to an RU (resonance unit) value of 100; the second lane was left unused (control); the third lane was covered with soluble CD4 (10^−7 M) up to a value of 450 RU; on the fourth lane, CD4M33 (10^−7 M) was immobilized at a value of 100 RU.” for “8.5.”

[4] = target: T1, gp120HXB2 (Human immunodeficiency virus type 1 group M subtype B, UniProt P04578); test: Surface plasmon resonance, gp120HXB2 binding to immobilized antibodies 48d and CG10 in presence of peptide; conditions: 1.5-fold and 20-fold molar excess of peptide
T1 construct: the wild-type gp120 viral protein is concentrated and directly purified from the culture supernatant; signal peptide of the ecdysteroid glycosyltransferase of Autographa californica baculovirus (N); made in house; host or cells: Sf9 insect cells, recombinant baculovirus
From the text: In order to evaluate the ability of the peptide of the present invention CD4M33 to induce conformational variations in the gp120 protein, characterized by the exposure of epitopes sensitive to neutralizing antibodies, the interaction of such human antibodies, 48d and CG10, with the HIV envelope in the presence of CD4M33 and, by comparison, of recombinant CD4, was undertaken using the surface plasmon resonance technique. The antibodies 48d and CG10 were covalently attached to the surface of the chips (biochip), and the solutions of gp120, in the absence of CD4 and in the presence of an excess of CD4 and of CD4M33, were injected.

[5] = target: T2, gp120LAI (Human immunodeficiency virus type 1 group M subtype B, UniProt P03377); test: Competition indirect ELISA, inhibition of rgp120LAI-soluble CD4 interaction
T2 construct: protein gp120LAI and gp120HXB2
Procedure: as §1, with “The reaction was stopped after 30 minutes by adding 2M sulphuric acid.” left out
The assays were carried out in duplicate and the results were expressed as the mean of experimental duplicates.

[6] = target: T1, gp120HXB2; test: Competition indirect ELISA, inhibition of gp120HXB2-soluble CD4 interaction
Procedure: as §1, with “The reaction was stopped after 30 minutes by adding 2M sulphuric acid.” left out
The assays were carried out in duplicate and the results were expressed as the mean of experimental duplicates. […]

Compound	increase in the ability to inhibit the CD4-gp120 binding compared to CD4M9 ([1]; gp120HXB2 and gp120LAI) [fold]	IC50 ([1]; summary over gp120HXB2 and gp120LAI) [nM]	Kd [2] [nM]	Kd [3] [nM]	interaction of gp120HXB2 with antibodies 48d and CG10 (in words) [4]	IC50 [5] [nM]	IC50 ([6]; IC50 (gp120HXB2), soluble recombinant CD4, standard deviation less than 30%) [nM]	IC50 ([6]; IC50, inhibition of gp120HXB2-soluble CD4 interaction) [nM]
CC(C)C[C@@H]1NC(=O)CNC(=O)[C@H](CC(C)C)NC(=O)[C@H](CO)NC(=O)[C@H](CCCCN)NC(=O)[C@@H]2CSSC[C@@H](C(=O)N[C@H](C(N)=O)C(C)C)NC(=O)[C@H](C)NC(=O)[C@@H]3CSSC[C@H](NC(=O)[C@H](Cc4ccccc4)NC(=O)[C@H](Cc4c[nH]cn4)NC(=O)[C@H](CC(C)C)NC(=O)[C@H](CC(N)=O)NC(=O)CCSSC[C@H](NC(=O)[C@H](CCCCN)NC(=O)CNC(=O)[C@H](CC(C)C)NC1=O)C(=O)N[C@@H](C)C(=O)NCC(=O)N[C@@H](CO)C(=O)N[C@@H](C(c1ccccc1)c1ccccc1)C(=O)N3)C(=O)N[C@@H](CCC(N)=O)C(=O)N[C@@H](CC(C)C)C(=O)N[C@@H](CCCNC(=N)N)C(=O)N2 [CD4M33]	1000	0.12 to 0.25	8.5	2.4 to 8	strong interaction with the antibodies	–	–	–
CC(C)C[C@@H]1NC(=O)CNC(=O)[C@H](CC(C)C)NC(=O)[C@H](CO)NC(=O)[C@H](CCCCN)NC(=O)[C@@H]2CSSC[C@@H](C(=O)N[C@H](C(N)=O)C(C)C)NC(=O)[C@H](C)NC(=O)[C@@H]3CSSC[C@H](NC(=O)[C@H](Cc4ccccc4)NC(=O)[C@H](C)NC(=O)[C@H](CC(C)C)NC(=O)[C@H](CC(N)=O)NC(=O)CCSSC[C@H](NC(=O)[C@H](CCCCN)NC(=O)CNC(=O)[C@H](CC(C)C)NC1=O)C(=O)N[C@@H](C)C(=O)NCC(=O)N[C@@H](CO)C(=O)N[C@@H](Cc1ccccc1)C(=O)N3)C(=O)N[C@@H](CCC(N)=O)C(=O)N[C@@H](CC(C)C)C(=O)N[C@@H](CCCNC(=N)N)C(=O)N2 [CD4M27]	–	–	–	–	–	10	7	7
